Assay results published in PubChem BioAssay AID602140 (NMMLSC, 2011).
Only a part is listed here, and it is no random draw. Calls of active or inactive are those of the source. The rule behind the calls is not given here.

Test system: Botulinum neurotoxin type F light chain protease (Clostridium botulinum)
Experiment: inhibition of botulinum toxin F LC protease – biochemical, flow cytometry, cherry pick 1, confirmation (AID 602140)
Settings: multiplex microsphere protease cleavage assay, at 10 µM, stronger effect = higher value

With `CN1CCC(Nc2ccc(F)c(Cl)c2)CC1` the inhibition was inactive: -3.9%.
